A mixed list of measured activities; the numbers were collected in NIAID ChemDB.

Shared fields: whole-cell or culture tests; organism: HIV-1; cell line: H9; measure: EC50

ECn is the concentration giving n% inhibition of infection, replication or growth.

{"compound": "COc1ccc(-c2c(C)nc3c(N4CC[C@@H](NC(=O)C(F)(F)F)C4)cc(C)nn23)cc1OC", "method": "p24", "result": "0.9 µM"}
{"compound": "NCC(N)=O", "strain or isolate": "SF2", "method": "p24", "result": "<100 µM"}
{"compound": "CC(=O)N[C@@H]1CCN(c2cc(C)nn3c(-c4ccc(F)cc4)c(C)nc23)C1", "method": "p24", "result": "2 µM"}
{"compound": "COc1ccc(C(=O)Oc2cc(OC)c(OC)c(OC)c2)cc1NC(=O)C(C)Br", "result": "0.017 µM"}
{"compound": "CC(=O)N[C@@H]1CCN(c2ccnn3cc(C)nc23)C1", "method": "p24", "result": ">10 µM"}
{"compound": "CCNc1cccnc1N1CCN(C(=O)c2cc3ccccc3[nH]2)CC1", "strain or isolate": "IIIB", "method": "p24", "result": "0.06 µM"}
{"compound": "COc1ccc(-c2c(C)nc3c(N4CC[C@@H](NC(=O)Oc5cccc(C)c5)C4)cc(C)nn23)cc1OC", "method": "p24", "result": "0.2 µM"}
{"compound": "COc1ccccc1NC(=O)c1ccccc1C(O)c1ccc(OCO)c(OCO)c1", "strain or isolate": "LAI", "result": "12.9 µM"}
{"compound": "NCC(=O)O", "strain or isolate": "SF2", "method": "p24", "result": ">100 µM"}
{"compound": "CC(S)C(=O)NCC(=O)O", "method": "syncytia", "result": "200 µg/mL"}
{"compound": "N.O=S(=O)(NCc1ccccc1)c1ccc(F)cc1F", "strain or isolate": "NL4-3", "method": "p24 / ELISA", "conditions": "pseudotyped", "result": ">20 µM"}
{"compound": "Cc1cc(=O)oc2c3c(ccc12)S(=O)(=O)[C@H](C)[C@H](OC(=O)[C@@]12CC[C@@](C)(C(=O)O1)C2(C)C)[C@@H]3OC(=O)[C@@]12CC[C@@](C)(C(=O)O1)C2(C)C", "strain or isolate": "IIIB", "method": "p24 / antigen", "result": ">100 µg/mL"}
{"compound": "O=S(=O)(Nc1ccccc1)c1ccc(F)cc1F", "strain or isolate": "NL4-3", "method": "p24 / ELISA", "conditions": "pseudotyped", "result": ">20 µM"}
{"compound": "CC(C)Nc1cccnc1N1CCN(C(=O)c2cc3cc(F)ccc3[nH]2)CC1", "strain or isolate": "IIIB", "method": "p24", "result": "0.05 µM"}
{"compound": "O=P(O)(O)OP(=O)(O)OP(=O)(O)OP(=O)(O)OP(=O)(O)OP(=O)(O)OP(=O)(O)OP(=O)(O)OP(=O)(O)OP(=O)(O)OP(=O)(O)OP(=O)(O)OP(=O)(O)OP(=O)(O)OP(=O)(O)O", "strain or isolate": "IIIB", "method": "RT activity", "result": ">100 µg/mL"}
{"compound": "C=C(CC[C@@H](C)[C@H]1CCC2C3=C([C@@H](O)[C@H](OC(C)=O)[C@@]21C)[C@@]1(C)C[C@@H](O)[C@H](OS(=O)(=O)O)C(C)(C)[C@@H]1CC3)C(C)C", "method": "antigen", "result": "<50 µM"}
{"compound": "COc1ccccc1NC(=O)c1ccccc1C(O)c1ccc([N+](=O)[O-])cc1", "strain or isolate": "LAI", "result": "2.8 µM"}
{"compound": "CCCCCCCCCCCCCCCCCCCCCCOCC(C)(COCCCCCCCCCCCCCCCCCCCCCC)CO[C@]1(C(=O)O)C[C@H](OS(=O)(=O)O)[C@@H](NC(C)=O)[C@H]([C@H](OS(=O)(=O)O)[C@@H](COS(=O)(=O)O)OS(=O)(=O)O)O1", "strain or isolate": "MN", "method": "RT activity", "result": "2 µg/mL"}
{"compound": "O=c1nccc(NS(=O)(=O)c2ccc(F)cc2F)[nH]1", "strain or isolate": "NL4-3", "method": "p24 / ELISA", "conditions": "pseudotyped", "result": ">50 µM"}
{"compound": "O=c1oc(-c2ccc(OCc3ccccn3)cc2)cc(O)c1SCCc1ccccc1", "strain or isolate": "IIIB", "result": "2.3 µM"}
{"compound": "O=S(=O)(Nc1cccc2cccnc12)c1ccc(C(F)(F)F)cc1", "strain or isolate": "NL4-3", "method": "p24 / ELISA", "conditions": "pseudotyped", "result": "0.23 µM"}
{"compound": "COc1ccccc1NC(=O)c1ccccc1C(O)c1ccc(C#N)cc1", "strain or isolate": "LAI", "result": "3.1 µM"}
{"compound": "C=C(C)[C@@H]1CC[C@]2(C(=O)O)CC[C@]3(C)[C@H](CC[C@@H]4[C@@]5(C)CC[C@H](OC(=O)CC(C)(C)C(=O)O)C(C)(C)[C@@H]5CC[C@]43C)[C@@H]12", "strain or isolate": "IIIB", "method": "p24", "result": "0.00035 µM"}
{"compound": "NCC(=O)N1CCC[C@H]1C(=O)NCC(=O)O", "strain or isolate": "SF2", "method": "p24", "result": ">100 µM"}
{"compound": "COc1ccc(-c2c(C)nn3c(N4CC[C@@H](NC(C)=O)C4)cc(C)nc23)cc1OC", "strain or isolate": "RF", "method": "p24", "result": ">100 µM"}
{"compound": "O=C(CCCCCCCCCCC(=O)Nc1cc(S(=O)(=O)O)cc2cc(S(=O)(=O)O)cc(O)c12)Nc1cc(S(=O)(=O)O)cc2cc(S(=O)(=O)O)cc(O)c12", "method": "p24", "result": ">2 µg/mL"}
{"compound": "O=C1OCC2OC(O)C(O)C(O)C2OC(=O)c2cc(O)c(O)c(O)c2-c2c(O)c(O)c3oc(=O)c4c(c(O)c(O)c5oc(=O)c2c3c54)-c2c1cc(O)c(O)c2O", "strain or isolate": "IIIB", "method": "p24", "result": "2.5 µg/mL"}
{"compound": "COc1ccccc1NC(=O)c1ccccc1C(O)c1cccc([N+](=O)[O-])c1", "strain or isolate": "LAI", "result": "7.1 µM"}
{"compound": "COc1ccc(-c2c(C)nc3c(N4CC[C@@H](NC(C)=O)C4)cc(C)nn23)cc1", "method": "p24", "result": "1 µM"}
{"compound": "CC(=O)N(O)CCCCCNC(=O)CCC(=O)N(O)CCCCCNC(=O)CCC(=O)N(O)CCCCCN", "strain or isolate": "IIIB", "method": "p24", "result": "<30 µM"}
{"compound": "C=C(CC[C@@H](C)[C@H]1CC=C2C3=C([C@@H](O)[C@H](OC(C)=O)[C@@]21C)[C@@]1(C)C[C@@H](O)[C@H](OS(=O)(=O)O)C(C)(C)[C@@H]1CC3)C(C)C", "method": "antigen", "result": "<25 µM"}
{"compound": "COc1c(OCc2ccccc2)c(OCc2ccccc2)cc(CO)c1-c1c(CO)cc(OCc2ccccc2)c(OCc2ccccc2)c1OC", "strain or isolate": "IIIB", "method": "p24", "result": ">30 µg/mL"}
{"compound": "O=S(=O)(Nc1cccc2cccnc12)c1ccccc1", "strain or isolate": "NL4-3", "method": "p24 / ELISA", "conditions": "pseudotyped", "result": ">50 µM"}

Repeating the final 4 entries:

| compound | strain or isolate | method | conditions | result |
|---|---|---|---|---|
| CC(=O)N(O)CCCCCNC(=O)CCC(=O)N(O)CCCCCNC(=O)CCC(=O)N(O)CCCCCN | IIIB | p24 | - | <30 µM |
| C=C(CC[C@@H](C)[C@H]1CC=C2C3=C([C@@H](O)[C@H](OC(C)=O)[C@@]21C)[C@@]1(C)C[C@@H](O)[C@H](OS(=O)(=O)O)C(C)(C)[C@@H]1CC3)C(C)C | - | antigen | - | <25 µM |
| COc1c(OCc2ccccc2)c(OCc2ccccc2)cc(CO)c1-c1c(CO)cc(OCc2ccccc2)c(OCc2ccccc2)c1OC | IIIB | p24 | - | >30 µg/mL |
| O=S(=O)(Nc1cccc2cccnc12)c1ccccc1 | NL4-3 | p24 / ELISA | pseudotyped | >50 µM |

Blank or dashed fields: not listed here. Rows are shuffled and stem from different studies.